PMC9506549, “µ-Conotoxins Targeting the Human Voltage-Gated Sodium Channel Subtype NaV1.7” (2022)
Where “and” joins values, the source holds several entries; their conditions need not be identical. Equal values may be shown once. Read-outs that look alike come from different tables or passages of the source.

By UniProt entry, the sequences of proteins in these tests, tags left out. Residues count along the entry.
UniProt P35499, whole entry: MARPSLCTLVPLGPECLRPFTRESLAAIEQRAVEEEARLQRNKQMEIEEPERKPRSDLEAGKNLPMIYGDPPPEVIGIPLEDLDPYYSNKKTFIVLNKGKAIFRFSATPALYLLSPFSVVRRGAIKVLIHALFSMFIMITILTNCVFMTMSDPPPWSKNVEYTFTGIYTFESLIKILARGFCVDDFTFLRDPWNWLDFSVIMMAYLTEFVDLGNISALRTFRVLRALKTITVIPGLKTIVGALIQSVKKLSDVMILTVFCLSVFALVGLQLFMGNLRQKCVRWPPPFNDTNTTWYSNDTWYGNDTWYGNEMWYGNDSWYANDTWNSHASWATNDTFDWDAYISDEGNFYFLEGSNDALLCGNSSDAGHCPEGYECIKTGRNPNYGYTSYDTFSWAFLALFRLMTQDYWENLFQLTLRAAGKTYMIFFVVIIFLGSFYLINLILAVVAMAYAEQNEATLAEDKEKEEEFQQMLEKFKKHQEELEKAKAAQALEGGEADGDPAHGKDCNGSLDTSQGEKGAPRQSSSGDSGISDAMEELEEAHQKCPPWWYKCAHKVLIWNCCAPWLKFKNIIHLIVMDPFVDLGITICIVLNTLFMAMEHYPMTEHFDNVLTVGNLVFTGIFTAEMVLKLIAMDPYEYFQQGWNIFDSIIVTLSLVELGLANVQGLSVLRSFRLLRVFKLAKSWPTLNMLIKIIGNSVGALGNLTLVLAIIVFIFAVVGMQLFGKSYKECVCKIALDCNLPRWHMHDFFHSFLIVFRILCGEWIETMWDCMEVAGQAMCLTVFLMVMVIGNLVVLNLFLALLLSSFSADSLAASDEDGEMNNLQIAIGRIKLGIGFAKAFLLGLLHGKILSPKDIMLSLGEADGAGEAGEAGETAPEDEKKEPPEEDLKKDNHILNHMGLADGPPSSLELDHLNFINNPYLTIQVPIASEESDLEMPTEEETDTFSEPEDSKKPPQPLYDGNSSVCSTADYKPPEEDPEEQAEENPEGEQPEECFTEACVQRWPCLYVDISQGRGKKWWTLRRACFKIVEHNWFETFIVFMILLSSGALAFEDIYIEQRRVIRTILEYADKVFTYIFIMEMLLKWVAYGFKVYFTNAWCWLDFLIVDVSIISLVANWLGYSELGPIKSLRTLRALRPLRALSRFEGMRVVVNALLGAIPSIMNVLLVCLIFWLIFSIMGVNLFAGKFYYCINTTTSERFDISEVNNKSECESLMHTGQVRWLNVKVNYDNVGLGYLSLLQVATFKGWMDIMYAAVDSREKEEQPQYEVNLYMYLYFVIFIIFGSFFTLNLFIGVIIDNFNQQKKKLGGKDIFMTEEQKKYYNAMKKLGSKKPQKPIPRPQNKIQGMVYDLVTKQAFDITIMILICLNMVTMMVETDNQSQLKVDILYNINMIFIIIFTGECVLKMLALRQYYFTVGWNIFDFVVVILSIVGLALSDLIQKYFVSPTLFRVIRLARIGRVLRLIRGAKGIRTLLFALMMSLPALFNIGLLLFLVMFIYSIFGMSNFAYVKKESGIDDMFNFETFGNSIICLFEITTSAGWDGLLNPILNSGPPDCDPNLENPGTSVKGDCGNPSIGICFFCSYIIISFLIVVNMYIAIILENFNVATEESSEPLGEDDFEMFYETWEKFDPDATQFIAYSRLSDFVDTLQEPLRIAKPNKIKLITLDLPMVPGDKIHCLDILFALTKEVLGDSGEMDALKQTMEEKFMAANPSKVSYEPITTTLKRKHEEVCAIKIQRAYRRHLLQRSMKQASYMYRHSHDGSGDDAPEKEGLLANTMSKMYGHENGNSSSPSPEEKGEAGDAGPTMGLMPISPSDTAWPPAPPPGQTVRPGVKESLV
UniProt Q15858, whole entry: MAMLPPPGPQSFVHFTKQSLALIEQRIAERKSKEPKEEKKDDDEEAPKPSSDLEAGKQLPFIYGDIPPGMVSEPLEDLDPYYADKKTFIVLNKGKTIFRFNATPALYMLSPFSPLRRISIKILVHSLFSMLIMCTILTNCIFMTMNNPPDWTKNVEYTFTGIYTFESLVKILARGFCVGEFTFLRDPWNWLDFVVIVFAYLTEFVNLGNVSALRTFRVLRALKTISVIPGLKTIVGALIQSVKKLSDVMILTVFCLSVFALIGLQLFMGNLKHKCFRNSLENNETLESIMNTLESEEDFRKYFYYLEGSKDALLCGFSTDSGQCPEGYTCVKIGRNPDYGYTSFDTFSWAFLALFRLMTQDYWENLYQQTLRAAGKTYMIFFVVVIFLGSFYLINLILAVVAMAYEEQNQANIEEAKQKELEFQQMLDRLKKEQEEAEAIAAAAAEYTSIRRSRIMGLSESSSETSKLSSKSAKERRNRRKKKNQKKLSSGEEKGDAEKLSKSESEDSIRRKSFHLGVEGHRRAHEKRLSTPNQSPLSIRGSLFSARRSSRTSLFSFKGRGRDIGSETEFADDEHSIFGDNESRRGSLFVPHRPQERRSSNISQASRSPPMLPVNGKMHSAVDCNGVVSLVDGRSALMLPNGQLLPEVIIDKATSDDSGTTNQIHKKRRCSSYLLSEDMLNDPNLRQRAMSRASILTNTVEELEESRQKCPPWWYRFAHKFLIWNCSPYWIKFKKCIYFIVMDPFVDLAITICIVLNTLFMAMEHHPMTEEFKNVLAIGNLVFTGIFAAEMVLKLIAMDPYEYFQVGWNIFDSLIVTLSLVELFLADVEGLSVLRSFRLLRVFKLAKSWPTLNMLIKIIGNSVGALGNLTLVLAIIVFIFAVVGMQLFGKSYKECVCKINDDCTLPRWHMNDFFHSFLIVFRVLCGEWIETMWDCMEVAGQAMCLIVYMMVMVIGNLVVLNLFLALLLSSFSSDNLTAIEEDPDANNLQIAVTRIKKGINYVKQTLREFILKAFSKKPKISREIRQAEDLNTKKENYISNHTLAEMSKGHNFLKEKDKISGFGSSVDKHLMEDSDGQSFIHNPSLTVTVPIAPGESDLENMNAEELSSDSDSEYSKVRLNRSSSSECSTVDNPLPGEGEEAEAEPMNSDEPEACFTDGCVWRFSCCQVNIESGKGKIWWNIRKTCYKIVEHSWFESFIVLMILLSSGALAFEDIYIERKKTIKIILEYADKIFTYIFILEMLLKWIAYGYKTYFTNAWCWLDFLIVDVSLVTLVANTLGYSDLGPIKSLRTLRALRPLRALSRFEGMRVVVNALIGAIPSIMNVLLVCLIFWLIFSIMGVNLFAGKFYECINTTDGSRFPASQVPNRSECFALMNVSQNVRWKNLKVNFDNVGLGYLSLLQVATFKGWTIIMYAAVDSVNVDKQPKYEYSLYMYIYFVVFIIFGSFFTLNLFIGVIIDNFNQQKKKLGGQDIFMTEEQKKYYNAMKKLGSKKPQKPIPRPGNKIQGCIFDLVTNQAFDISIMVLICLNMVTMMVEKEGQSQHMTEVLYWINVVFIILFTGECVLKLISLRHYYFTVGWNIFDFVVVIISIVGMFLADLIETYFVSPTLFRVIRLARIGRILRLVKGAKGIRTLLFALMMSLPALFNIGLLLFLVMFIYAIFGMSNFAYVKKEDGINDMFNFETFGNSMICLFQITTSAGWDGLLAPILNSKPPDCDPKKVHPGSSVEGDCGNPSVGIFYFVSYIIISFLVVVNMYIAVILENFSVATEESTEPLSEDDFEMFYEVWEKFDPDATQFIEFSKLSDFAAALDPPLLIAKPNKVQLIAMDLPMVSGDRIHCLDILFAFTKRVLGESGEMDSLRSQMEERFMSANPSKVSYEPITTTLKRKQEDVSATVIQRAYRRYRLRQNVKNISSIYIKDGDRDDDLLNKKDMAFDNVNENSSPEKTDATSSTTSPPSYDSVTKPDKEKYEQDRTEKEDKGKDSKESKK
UniProt Q9NY46, whole entry: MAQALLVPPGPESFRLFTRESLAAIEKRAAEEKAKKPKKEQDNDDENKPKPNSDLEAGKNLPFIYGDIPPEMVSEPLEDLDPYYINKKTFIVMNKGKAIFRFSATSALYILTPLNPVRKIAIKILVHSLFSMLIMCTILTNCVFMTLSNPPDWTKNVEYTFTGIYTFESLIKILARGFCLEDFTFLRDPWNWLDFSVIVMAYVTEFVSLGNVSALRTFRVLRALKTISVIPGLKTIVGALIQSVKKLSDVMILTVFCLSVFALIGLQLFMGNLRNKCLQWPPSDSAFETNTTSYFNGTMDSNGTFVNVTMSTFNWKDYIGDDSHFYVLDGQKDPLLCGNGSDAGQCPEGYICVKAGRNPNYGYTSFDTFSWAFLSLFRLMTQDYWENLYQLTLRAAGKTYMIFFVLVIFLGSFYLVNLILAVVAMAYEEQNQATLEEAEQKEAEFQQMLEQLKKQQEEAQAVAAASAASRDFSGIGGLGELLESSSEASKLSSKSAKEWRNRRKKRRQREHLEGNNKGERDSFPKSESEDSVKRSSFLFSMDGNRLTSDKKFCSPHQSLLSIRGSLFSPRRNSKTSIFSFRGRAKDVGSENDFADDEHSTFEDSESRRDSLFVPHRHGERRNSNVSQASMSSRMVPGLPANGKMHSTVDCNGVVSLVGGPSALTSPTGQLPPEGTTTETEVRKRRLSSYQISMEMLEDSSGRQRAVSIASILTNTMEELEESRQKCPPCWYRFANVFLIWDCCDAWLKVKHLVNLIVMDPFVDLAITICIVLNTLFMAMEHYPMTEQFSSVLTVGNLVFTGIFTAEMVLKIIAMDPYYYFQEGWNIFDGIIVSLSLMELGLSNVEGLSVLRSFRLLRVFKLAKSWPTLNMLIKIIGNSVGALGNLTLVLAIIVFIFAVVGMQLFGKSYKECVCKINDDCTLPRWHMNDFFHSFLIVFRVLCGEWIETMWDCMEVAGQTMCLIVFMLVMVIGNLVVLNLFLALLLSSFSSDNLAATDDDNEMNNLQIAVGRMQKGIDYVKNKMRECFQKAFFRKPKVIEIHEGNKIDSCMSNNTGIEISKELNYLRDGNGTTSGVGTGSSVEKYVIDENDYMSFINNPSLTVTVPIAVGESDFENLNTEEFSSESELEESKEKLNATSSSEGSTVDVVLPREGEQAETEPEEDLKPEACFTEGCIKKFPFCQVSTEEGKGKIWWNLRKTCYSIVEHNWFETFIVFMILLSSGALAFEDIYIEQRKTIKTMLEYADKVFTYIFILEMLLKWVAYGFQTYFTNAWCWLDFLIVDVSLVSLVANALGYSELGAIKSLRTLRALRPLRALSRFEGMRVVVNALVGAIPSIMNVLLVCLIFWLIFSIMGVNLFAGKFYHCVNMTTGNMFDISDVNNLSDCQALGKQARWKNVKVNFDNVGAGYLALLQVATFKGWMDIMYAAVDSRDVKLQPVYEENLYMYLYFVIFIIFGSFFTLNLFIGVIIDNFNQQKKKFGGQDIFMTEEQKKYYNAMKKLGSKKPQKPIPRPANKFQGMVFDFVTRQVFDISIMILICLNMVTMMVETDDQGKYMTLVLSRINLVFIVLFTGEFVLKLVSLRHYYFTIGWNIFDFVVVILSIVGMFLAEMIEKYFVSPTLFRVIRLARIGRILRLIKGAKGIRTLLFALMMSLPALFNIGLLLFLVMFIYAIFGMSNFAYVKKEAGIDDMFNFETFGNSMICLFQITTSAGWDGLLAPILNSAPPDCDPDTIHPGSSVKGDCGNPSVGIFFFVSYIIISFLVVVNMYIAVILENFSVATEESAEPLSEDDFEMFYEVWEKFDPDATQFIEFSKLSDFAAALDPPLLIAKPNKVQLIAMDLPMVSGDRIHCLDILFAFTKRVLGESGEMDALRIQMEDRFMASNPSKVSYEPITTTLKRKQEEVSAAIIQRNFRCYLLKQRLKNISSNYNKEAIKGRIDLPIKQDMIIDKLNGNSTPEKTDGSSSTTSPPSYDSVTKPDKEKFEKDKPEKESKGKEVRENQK
UniProt Q07699, 19-218 partner limits assumed: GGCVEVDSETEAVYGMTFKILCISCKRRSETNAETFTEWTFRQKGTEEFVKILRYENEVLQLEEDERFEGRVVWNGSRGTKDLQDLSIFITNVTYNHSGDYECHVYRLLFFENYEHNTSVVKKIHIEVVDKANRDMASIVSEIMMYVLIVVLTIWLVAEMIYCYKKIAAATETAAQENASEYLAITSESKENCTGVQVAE

Legend:
hNaV1.4 = hNaV1.4 (Homo sapiens, UniProt P35499); test: Automated whole-cell patch-clamp electrophysiology, hNaV1.4/β1 in HEK293 cells; details: for IC50: 22 °C, mean ± SEM
hNaV1.8 = hNaV1.8 (Homo sapiens, UniProt Q9Y5Y9); test: Automated whole-cell patch-clamp electrophysiology, hNaV1.8/β3 in CHO cells; details: up to 1 µM; CHO hNaV1.8/β3, TTX 1 µM present, Figure S6
hNaV1.2 = hNaV1.2 (Homo sapiens, UniProt Q99250); test: Automated whole-cell patch-clamp electrophysiology, hNaV1.2/β1 in HEK293 cells; details: read-out: IC50 NaV1.2; automated whole-cell patch-clamp (QPatch-16), HEK293 hNaV1.2/β1, 0.1% BSA, 5 min per concentration, 22 °C; mean ± SEM, n = 3–10 cells
hNaV1.7 = hNaV1.7 (Homo sapiens, UniProt Q15858); test: Automated whole-cell patch-clamp electrophysiology, hNaV1.7/β1 in HEK293 cells; details: for IC50: read-out: IC50 NaV1.7, automated whole-cell patch-clamp (QPatch-16), HEK293 hNaV1.7/β1, 0.1% BSA, 5 min per concentration, 22 °C, mean ± SEM, n = 3–10 cells
hNaV1.5 = hNaV1.5 (Homo sapiens, UniProt Q14524); test: Automated whole-cell patch-clamp electrophysiology, hNaV1.5/β1 in HEK293 cells; details: up to 1 µM; HEK293 hNaV1.5/β1, Figure S6
hNaV1.3 = hNaV1.3 (Homo sapiens, UniProt Q9NY46); test: Automated whole-cell patch-clamp electrophysiology, hNaV1.3/β1 in HEK293 cells; details: read-out: IC50 NaV1.3; automated whole-cell patch-clamp (QPatch-16), HEK293 hNaV1.3/β1, 0.1% BSA, 5 min per concentration, 22 °C; mean ± SEM, n = 3–10 cells
[1] = read-out: IC50 hNav1.4, analogue series (Table 3), automated whole-cell patch-clamp, HEK293 hNaV1.4/β1, 5 min per concentration, n = 3–4 cells
[2] = read-out: IC50 NaV1.4, automated whole-cell patch-clamp (QPatch-16), HEK293 hNaV1.4/β1, 0.1% BSA, 5 min per concentration, n = 3–10 cells
[3] = 1 µM, highest concentration tested

Question: `C[C@@H]1NC(=O)[C@H](Cc2c[nH]cn2)NC(=O)[C@H](CC(=O)O)NC(=O)[C@H](Cc2c[nH]cn2)NC(=O)[C@@H]2CSSC[C@H](NC(=O)CNC(=O)[C@@H](N)CCCNC(=N)N)C(=O)N[C@H]3CSSC[C@H](NC(=O)[C@H](CCCNC(=N)N)NC1=O)C(=O)N[C@H](C(N)=O)CSSC[C@H](NC(=O)CNC(=O)CNC(=O)[C@H](CCCNC(=N)N)NC(=O)CNC(=O)[C@H](CC(N)=O)NC3=O)C(=O)N[C@@H](CO)C(=O)N[C@@H](CO)C(=O)N[C@@H](CCCNC(=N)N)C(=O)N[C@@H](Cc1c[nH]c3ccccc13)C(=O)N2` was tested. Which IC50 (hNaV1.4; [1]) did it give?
Answer: 80.3 nM

Question: For `C[C@@H]1NC(=O)[C@H](Cc2c[nH]cn2)NC(=O)[C@H](CC(=O)O)NC(=O)[C@H](CCCNC(=N)N)NC(=O)[C@@H]2CSSC[C@H](N)C(=O)N[C@H]3CSSC[C@H](NC(=O)[C@H](CCCNC(=N)N)NC1=O)C(=O)N[C@H](C(N)=O)CSSC[C@H](NC(=O)CNC(=O)CNC(=O)[C@H](CCCNC(=N)N)NC(=O)CNC(=O)[C@H](CC(N)=O)NC3=O)C(=O)N[C@@H](CO)C(=O)N[C@@H](CO)C(=O)N[C@@H](CCCNC(=N)N)C(=O)N[C@@H](Cc1c[nH]c3ccccc13)C(=O)N2`, which IC50 (hNaV1.4; [1]) is on record?
Answer: 96.3 nM

Question: What does the source list for `N=C(N)NCCC[C@@H]1NC(=O)CNC(=O)[C@H](CC(N)=O)NC(=O)[C@@H]2CSSC[C@@H]3NC(=O)[C@H](CCCNC(=N)N)NC(=O)[C@H](CO)NC(=O)[C@H](Cc4c[nH]cn4)NC(=O)[C@H](CC(=O)O)NC(=O)[C@H](CCCNC(=N)N)NC(=O)[C@H](CSSC[C@H](NC(=O)[C@H](CCCNC(=N)N)NC(=O)[C@@H]4CCC(=O)N4)C(=O)N2)NC(=O)[C@H](Cc2c[nH]c4ccccc24)NC(=O)[C@H](CCCNC(=N)N)NC(=O)[C@H](CO)NC(=O)[C@H](CO)NC(=O)[C@H](CSSC[C@@H](C(N)=O)NC3=O)NC(=O)CNC(=O)[C@H](CCCNC(=N)N)NC1=O`?
Answer: inhibition of TTX-r hNaV1.8 (hNaV1.8): no inhibition; IC50 (hNaV1.2): 172 nM; IC50 (hNaV1.4; [2]): 14 nM; fold difference in inhibitory potency at hNaV1.7 between SmIIIA and KIIIA (hNaV1.7; SmIIIA more potent): 9 fold and ~ 10 fold; IC50 (hNaV1.7): 41 nM; inhibition of TTX-r hNaV1.5 (hNaV1.5): minimal to no inhibition; IC50 (hNaV1.3): 95 nM

Question: With `C[C@@H]1NC(=O)[C@H](C)NC(=O)[C@H](Cc2c[nH]cn2)NC(=O)[C@H](CC(=O)O)NC(=O)[C@H](CCCNC(=N)N)NC(=O)[C@@H]2CSSC[C@H](NC(=O)CNC(=O)[C@@H](N)CCCNC(=N)N)C(=O)N[C@H]3CSSC[C@H](NC1=O)C(=O)N[C@H](C(N)=O)CSSC[C@H](NC(=O)CNC(=O)CNC(=O)[C@H](CCCNC(=N)N)NC(=O)CNC(=O)[C@H](CC(N)=O)NC3=O)C(=O)N[C@@H](CO)C(=O)N[C@@H](CO)C(=O)N[C@@H](CCCNC(=N)N)C(=O)N[C@@H](Cc1c[nH]c3ccccc13)C(=O)N2` as the compound, how does the IC50 (hNaV1.4; [1]) read?
Answer: 64.8 nM

Question: With `C[C@@H]1NC(=O)[C@H](Cc2c[nH]cn2)NC(=O)[C@H](C)NC(=O)[C@H](CCCNC(=N)N)NC(=O)[C@@H]2CSSC[C@H](NC(=O)CNC(=O)[C@@H](N)CCCNC(=N)N)C(=O)N[C@H]3CSSC[C@H](NC(=O)[C@H](CCCNC(=N)N)NC1=O)C(=O)N[C@H](C(N)=O)CSSC[C@H](NC(=O)CNC(=O)CNC(=O)[C@H](CCCNC(=N)N)NC(=O)CNC(=O)[C@H](CC(N)=O)NC3=O)C(=O)N[C@@H](CO)C(=O)N[C@@H](CO)C(=O)N[C@@H](CCCNC(=N)N)C(=O)N[C@@H](Cc1c[nH]c3ccccc13)C(=O)N2` as the compound, how does the IC50 (hNaV1.4; [1]) read?
Answer: 14.6 nM

Question: How did the IC50 (hNaV1.2) turn out when `N=C(N)NCCC[C@@H]1NC(=O)[C@H](CO)NC(=O)[C@H](Cc2c[nH]cn2)NC(=O)[C@H](CC(=O)O)NC(=O)[C@H](CCCNC(=N)N)NC(=O)[C@@H]2CSSC[C@@H]3NC(=O)[C@@H](N)CSSC[C@H](NC1=O)C(=O)N[C@H](C(N)=O)CSSC[C@H](NC(=O)[C@H](CC(N)=O)NC3=O)C(=O)N[C@@H](CO)C(=O)N[C@@H](CO)C(=O)N[C@@H](CCCCN)C(=O)N[C@@H](Cc1c[nH]c3ccccc13)C(=O)N2` was run?
Answer: 186 nM

Question: And the IC50 (hNaV1.4; [2])?
Answer: 67 nM

Question: And the IC50 (hNaV1.7)?
Answer: 379 nM

Question: And the “inhibition of TTX-r hNaV1.5” value (hNaV1.5)?
Answer: minimal to no inhibition

Question: And the IC50 (hNaV1.3)?
Answer: > 1000 nM

Question: Which results are given for `C[C@@H]1NC(=O)[C@H](C)NC(=O)[C@H](Cc2c[nH]cn2)NC(=O)[C@H](CC(=O)O)NC(=O)[C@H](Cc2c[nH]cn2)NC(=O)[C@@H]2CSSC[C@H](N)C(=O)N[C@H]3CSSC[C@H](NC1=O)C(=O)N[C@H](C(N)=O)CSSC[C@H](NC(=O)CNC(=O)CNC(=O)[C@H](CCCNC(=N)N)NC(=O)CNC(=O)[C@H](CC(N)=O)NC3=O)C(=O)N[C@@H](CO)C(=O)N[C@@H](CO)C(=O)N[C@@H](CCCNC(=N)N)C(=O)N[C@@H](Cc1c[nH]c3ccccc13)C(=O)N2`?
Answer: activity at hNaV1.4 at 1 µM (hNaV1.4; [3]): not active; IC50 (hNaV1.4; [1]): > 1000 nM; inhibition at hNaV1.7 at 1 µM (hNaV1.7; [3]): ~ 50%

Question: `C[C@@H]1NC(=O)[C@H](C)NC(=O)[C@H](Cc2c[nH]cn2)NC(=O)[C@H](CC(=O)O)NC(=O)[C@H](Cc2c[nH]cn2)NC(=O)[C@@H]2CSSC[C@H](NC(=O)CNC(=O)[C@@H](N)CCCNC(=N)N)C(=O)N[C@H]3CSSC[C@H](NC1=O)C(=O)N[C@H](C(N)=O)CSSC[C@H](NC(=O)CNC(=O)CNC(=O)[C@H](CCCNC(=N)N)NC(=O)CNC(=O)[C@H](CC(N)=O)NC3=O)C(=O)N[C@@H](CO)C(=O)N[C@@H](CO)C(=O)N[C@@H](CCCNC(=N)N)C(=O)N[C@@H](Cc1c[nH]c3ccccc13)C(=O)N2` was tested. Which IC50 (hNaV1.4; [1]) did it give?
Answer: 248 nM

Question: With `C[C@@H]1NC(=O)[C@H](Cc2c[nH]cn2)NC(=O)[C@H](CC(=O)O)NC(=O)[C@H](CCCNC(=N)N)NC(=O)[C@@H]2CSSC[C@H](NC(=O)CNC(=O)[C@@H](N)CCCNC(=N)N)C(=O)N[C@H]3CSSC[C@H](NC(=O)[C@H](CCCNC(=N)N)NC1=O)C(=O)N[C@H](C(N)=O)CSSC[C@H](NC(=O)CNC(=O)CNC(=O)[C@H](CCCNC(=N)N)NC(=O)CNC(=O)[C@H](CC(N)=O)NC3=O)C(=O)N[C@@H](CO)C(=O)N[C@@H](CO)C(=O)N[C@@H](CCCNC(=N)N)C(=O)N[C@@H](Cc1c[nH]c3ccccc13)C(=O)N2` as the compound, how does the IC50 (hNaV1.4; [1]) read?
Answer: 12.8 nM

Question: For `C[C@@H]1NC(=O)[C@H](Cc2c[nH]cn2)NC(=O)[C@H](CC(=O)O)NC(=O)[C@H](CCCNC(=N)N)NC(=O)[C@@H]2CSSC[C@H](NC(=O)CNC(=O)[C@@H](N)CCCNC(=N)N)C(=O)N[C@H]3CSSC[C@H](NC(=O)[C@H](CCCNC(=N)N)NC1=O)C(=O)N[C@H](C(N)=O)CSSC[C@H](NC(=O)CNC(=O)[C@H](CCCNC(=N)N)NC(=O)[C@H](CCCNC(=N)N)NC(=O)CNC(=O)[C@H](CC(N)=O)NC3=O)C(=O)N[C@@H](CO)C(=O)N[C@@H](CO)C(=O)N[C@@H](CCCNC(=N)N)C(=O)N[C@@H](Cc1c[nH]c3ccccc13)C(=O)N2`, which “Fold Difference to SxIIIC (hNaV1.7)” value (hNaV1.7; ↓ fold-decrease, ↑ fold-increase in potency compared to SxIIIC, ns no significant difference) is on record?
Answer: ns

Question: Which IC50 (hNaV1.4; [1]) does the source give for `C[C@@H]1NC(=O)[C@H](C)NC(=O)[C@H](Cc2c[nH]cn2)NC(=O)[C@H](CC(=O)O)NC(=O)[C@H](CCCNC(=N)N)NC(=O)[C@@H]2CSSC[C@H](N)C(=O)N[C@H]3CSSC[C@H](NC1=O)C(=O)N[C@H](C(N)=O)CSSC[C@H](NC(=O)CNC(=O)CNC(=O)[C@H](CCCNC(=N)N)NC(=O)CNC(=O)[C@H](CC(N)=O)NC3=O)C(=O)N[C@@H](CO)C(=O)N[C@@H](CO)C(=O)N[C@@H](CCCNC(=N)N)C(=O)N[C@@H](Cc1c[nH]c3ccccc13)C(=O)N2` here?
Answer: 222 nM

Question: For `C[C@@H]1NC(=O)[C@H](Cc2c[nH]cn2)NC(=O)[C@H](CC(=O)O)NC(=O)[C@H](Cc2c[nH]cn2)NC(=O)[C@@H]2CSSC[C@H](N)C(=O)N[C@H]3CSSC[C@H](NC(=O)[C@H](CCCNC(=N)N)NC1=O)C(=O)N[C@H](C(N)=O)CSSC[C@H](NC(=O)CNC(=O)CNC(=O)[C@H](CCCNC(=N)N)NC(=O)CNC(=O)[C@H](CC(N)=O)NC3=O)C(=O)N[C@@H](CO)C(=O)N[C@@H](CO)C(=O)N[C@@H](CCCNC(=N)N)C(=O)N[C@@H](Cc1c[nH]c3ccccc13)C(=O)N2`, which IC50 (hNaV1.4; [1]) is on record?
Answer: 221 nM

Question: Which IC50 (hNaV1.4; [1]) does the source give for `C[C@@H]1NC(=O)[C@H](Cc2c[nH]cn2)NC(=O)[C@H](CC(=O)O)NC(=O)[C@H](CCC(N)=O)NC(=O)[C@@H]2CSSC[C@H](NC(=O)CNC(=O)[C@@H](N)CCCNC(=N)N)C(=O)N[C@H]3CSSC[C@H](NC(=O)[C@H](CCCNC(=N)N)NC1=O)C(=O)N[C@H](C(N)=O)CSSC[C@H](NC(=O)CNC(=O)CNC(=O)[C@H](CCCNC(=N)N)NC(=O)CNC(=O)[C@H](CC(N)=O)NC3=O)C(=O)N[C@@H](CO)C(=O)N[C@@H](CO)C(=O)N[C@@H](CCCNC(=N)N)C(=O)N[C@@H](Cc1c[nH]c3ccccc13)C(=O)N2` here?
Answer: 99.5 nM

Question: With `C[C@@H]1NC(=O)[C@H](Cc2c[nH]cn2)NC(=O)[C@H](CC(=O)O)NC(=O)[C@H](C)NC(=O)[C@@H]2CSSC[C@H](NC(=O)CNC(=O)[C@@H](N)CCCNC(=N)N)C(=O)N[C@H]3CSSC[C@H](NC(=O)[C@H](CCCNC(=N)N)NC1=O)C(=O)N[C@H](C(N)=O)CSSC[C@H](NC(=O)CNC(=O)CNC(=O)[C@H](CCCNC(=N)N)NC(=O)CNC(=O)[C@H](CC(N)=O)NC3=O)C(=O)N[C@@H](CO)C(=O)N[C@@H](CO)C(=O)N[C@@H](CCCNC(=N)N)C(=O)N[C@@H](Cc1c[nH]c3ccccc13)C(=O)N2` as the compound, how does the IC50 (hNaV1.4; [1]) read?
Answer: 38 nM
